Experimental data taken from paper PMC8593223, “Rapid Identification of Secondary Structure and Binding Site Residues in an Intrinsically Disordered Protein Segment” (2021).

Target: partner chain of the complex shown
Assay: yeast surface display titration, flow cytometry (FACS)
Conditions: MazF6 about 55 nM (read from x axis); highest concentration shown for L41R; parent: 9.9e+03

B1: unnamed (protein)
parent chain 1: not shown
parent chain 2: MKTAISLPDETFDRVSRRASELGMSRSEFFTKAAQRYLHELDAQLLTGQIDRALESIHGTDEAEALAVANAYRVLETMDDEW
With B1 the response was 1600 MFI.
